Source: the supplement of paper PMC9931576
Human monoclonal antibodies against the spike receptor-binding domain (heavy:light variable regions). IC50 against pseudoviruses bearing the spike of naturally observed variants; lower = stronger; >10 µg/ml means not reached at the top dose. No active / inactive call. The stated detection limit is 0.0005 µg/ml; values near or below 0.001 µg/ml lie at the floor of the assay.

What was measured:
Test in all cases: pseudovirus neutralization IC50; higher = weaker neutralization
[1] = target: SARS-CoV-2 Omicron BA.1 spike pseudovirus
Protocol: (§1)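 Single-round VSV luciferase pseudovirus mixed with antibody dilutions for 1 h and put on Huh-7 cells for about a day; IC50 from the dose curve.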

[2] = target: SARS-CoV-2 Omicron BA.2 spike pseudovirus
Protocol: as §1

[3] = target: SARS-CoV-2 Omicron BA.2.75 spike pseudovirus
Protocol: as §1

[4] = target: SARS-CoV-2 Omicron BA.5 spike pseudovirus
Protocol: as §1

[5] = target: SARS-CoV-2 Omicron BQ.1.1 spike pseudovirus
Protocol: as §1

[6] = target: SARS-CoV-2 Omicron XBB spike pseudovirus
Protocol: as §1

[7] = target: SARS-CoV-2 early D614G spike pseudovirus
Protocol: as §1

Row | Binder | pseudovirus neutralization IC50 [1] [µg/mL] | pseudovirus neutralization IC50 [2] [µg/mL] | pseudovirus neutralization IC50 [3] [µg/mL] | pseudovirus neutralization IC50 [4] [µg/mL] | pseudovirus neutralization IC50 [5] [µg/mL] | pseudovirus neutralization IC50 [6] [µg/mL] | pseudovirus neutralization IC50 [7] [µg/mL]
1 | BD56-739 (protein) chain 1: QVTLRESGPALVKPTQTLTLTCTFSGFSLSTSGMCVSWIRQPPGKALEWLALIDWDDDKYYSASLKTRLTISKDTSKNQVVLTMTNMDPVDTATYYCARISSDYGYYFDYWGQGTLVTVSS chain 2: QSVVTQPPSASGTPGQRVTISCSGSSSNMGSNTVNWYQQLPGTAPKLLIYTNNQRPSGVPDRLSGSKSGTSASLAISGLQSEDEADYYCAAWDDSLNGWVFGGGTKLTVL | > 10 | > 10 | > 10 | > 10 | > 10 | > 10 | > 10
2 | BD56-900 (protein) chain 1: EVQLVESGGDLVQPGRSLRLSCAASGFTFDDYAMHWVRQVPGKGLEWVSGITWNGGIIDYADSVKGRFIISRDNAKNSLYLQMISLRVEDTALYYCAKDLFSDDRRDYHYAMDVWGQGTTVTVSS chain 2: SYVLIQPPSVSVAPGKTARISCGGRNIDSKSVHWYQQKPGQAPVLVIYYNSDRPSGIPERFSGSNSGNTATLTISRVEAGDEADYFCQVWDSSSDHVMFGGGTKLTVL | 0.0176 | 0.0138 | 0.0143 | > 10 | > 10 | 2.22 | 0.0296
3 | BD56-903 (protein) chain 1: QVQLVQSGAEVKKPGSSVKVSCKASGGTFSSYSISWVRQAPGQGLEWMGKIIPILGVANYAQNFQGRVTVTADKSTSTAYMELSSLTSEDTAVYYCAKEGGRRDWYFDLWGRGTLVTVSS chain 2: QSVLTQPPSVSGAPGQRVTISCTGSNSNIGAGYDVHWYQQLPGSAPKLLIYANSNRPSGVPDRFSGSKSGTSGTLAITGLQAEDEADYYCQSYDSSLSDLVFGGGTKLTVL | 0.362 | 0.371 | 0.701 | > 10 | > 10 | 2.86 | 0.506
4 | BD56-905 (protein) chain 1: QLQLQESGPGLVKPSETLSLTCTVSKGSISSTNYYWGWIRQPPGKGLEWIGHIYYSGATYYNSSLKSRVTISVDTSKNQFSLKLSSVTAADTAVYYCARQSRTFGEIIALDYWGQGTLVTVSS chain 2: QSALTQPRSVSGSPGQSVTISCTGTSSDVGGYDYVSWYQQHPGKAPKLMIYDVIKRPSRVPDRFSGSKSGNTASLTISGLQAEDEADYYCCSYAGISVIFGGGTKLTVL | > 10 | > 10 | > 10 | > 10 | > 10 | > 10 | > 10
5 | BD56-908 (protein) chain 1: EVQLVESGGGLVQPGRSLRLSCAASGFTFDDYAMHWVRQAPGKGLEWVSGITSNSGTIGYADAVKGRFTISRDNAKHSLYLQMNSLRREDTALYYCAKDARKWLVEGEGYLHYWGQGTLVTVSS chain 2: QSALTQPASVSGSPGQSITISCTGTSSDVGAYNYVSWYQQHPGNAPEVMIYDVNKRPSGVSNRFSGSKSGNTASLTISGLQAEDETDYYCSSYTTSSTYVFGTGTKVTVL | 0.202 | 0.329 | 0.211 | > 10 | > 10 | 3.67 | 0.156
6 | BD56-910 (protein) chain 1: EVHLVESGGGLVQPGRSLRLSCAASEFTFDDYAIHWVRQGPGKGLEWVSGITSNGGSIGYSDSVKGRFIISRDNAKNSLYLQMNSLKAEDTALYYCAKDARRWLLEGEGYFDYWGQGTLVIVSS chain 2: HSALTQPASVSGSPGQSITISCTGTSGDVGVYNFVSWYQQHPGKAPKLMIYDVSKRPSGVSNRFSGSKSGNTASLTISGLQAEDEADYYCSSYTTSSTYVFGPGTKVTVL | 0.0566 | 0.0301 | 0.017 | > 10 | > 10 | > 10 | 0.0373
7 | BD56-912 (protein) chain 1: QLQLQESGPGLVKPSETLSLTCSVSGGYVSSGSYYWAWLRQPPGTGLEWIGSISYTGTTSYNPSLKSRVTLSVDTSMDQFSLKVTSVTAADTAVYYCARGSTIRLSDAFDIWGQGTIVTVFS chain 2: QSVLTQPPSVSAAPGQKVTISCSGSSTNIGNNYVSWYQQLPGTAPKLLIYGNNKRPSGIPDRFSGSKSGTSATLGITGLLTGDEAAYYCGTWDTSLRAVVFGGGTKLTVL | > 10 | > 10 | > 10 | > 10 | > 10 | > 10 | 3.02
8 | BD56-914 (protein) chain 1: QVQLVESGGGVAQPGTSVRLSCAASGFTFSSYAMHWVRQAPGKGLEWVAVISYDGRNKYYVDSVKGRFTISRDNSKNTLYVQMNSLRPEDTAVYYCTKAAGSGWYDVYQFGMDVWGRGTTVTVSS chain 2: QSVLTQPPSVSGAPGQRVTISCTGRSSNIGSGYDVHWYQQLPGTAPKLLIYANSNRPSGVPDRFSGSKSDISASLAITGLQAEDEADYYCQSYDSTLSRWVFGGGTRLTVL | > 10 | > 10 | > 10 | > 10 | > 10 | > 10 | > 10
9 | BD56-917 (protein) chain 1: EVQVLESGGGLVQPGGSLRLSCAASGFTFNIYAMNWVRQAPGKGLEWVSLISGSGDHTYYADSVKGRFTISRDNSKNTVYLQMNSLRAEDTAVYYCTMKYRLVSVVYYFDFWGQGTQVTVSS chain 2: DIQMTQSPSSLSASIGDRVTITCRASQGINNYLNWYQQKPGKAPNLLIYAASNLQSGVPSRFSGSGSGTDFTLTISSLQPEDFATYYCQQSYNTPRTFGQGTKLEMK | 0.00303 | 0.00194 | 0.00129 | > 10 | > 10 | > 10 | 0.00326
10 | BD56-918 (protein) chain 1: QVQLVQSGAEVKKPGASVKVSCEAIGYTFANYGIGWVRQAPGQGLEWMGWINAYNGNTNYAQKFQGRVTMTTDTSTRTAYMELRSLRSDDTAVYYCAREGGYCSSSSCHSTSDNYFDSWGQGTLVTVSS chain 2: SYVLTQPPSVSVAPGKTARITCGGSNIGSKGVHWYQQRPGQAPVLVIYFDSDRPSGIPERFSGSNSGNTATLTITRVDAGDEADYYCQVWDSSGDHWVFGGGTKLTVL | 3.14 | 5.76 | > 10 | > 10 | > 10 | > 10 | 6.83
11 | BD56-925 (protein) chain 1: QVHLVQSGAEVKKPGASVKVSCKASGYTFTSYGISWVRQAPGQGLEWMGWISTFNGDTTYAQKTQGRVTMTTDTSTSTAYLELRNLRSDDTAVFYCARVVSFYDRSTFYFFDYWGQGTLVTVSS chain 2: EIVMTQSPATLSVSPGERATLSCRASQSISSNLAWYQQKPDQTPRLLIYGASTRATGIPARFSGSGSGTEFTLTISSLKSEDFAVYYCQQYDDWPPTWTFGQGTRVEIK | 0.496 | 0.309 | 0.299 | 0.738 | 1.24 | 2.57 | 0.8
12 | BD56-927 (protein) chain 1: QVTLRESGPALVKPTQTLTLTCTFSGFSFSTSGMCVTWIRQPPGKALEWLALINSDDDKYYSTSLKPRLTISKDTSKNQVVLTMTKVDPVDTATYYCARINRVNYYDRSGYRAFDYYGLDVWGQGTTVTVSS chain 2: EIVLTQSPDTLSLSPGERATLSCRASQSVSSTYLAWYQHKPAQAPRLLIYGASSRATGIPDRFGGSGSGTDFTLTISRVEREDFAVYYCQQYGGSTPITFGQGTRLEMK | 0.237 | 1.62 | 1.18 | 1.96 | 1.89 | 1.57 | 0.0736
